Data source: PubChem BioAssay AID1259414 (Drosophila RNAi Screening Center, 2018)

- Purpose: 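Fly genes that alter Wolbachia amount inside host cells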 (primary screen)
- Cells: Drosophila JW18 cells infected with Wolbachia
- Reagents: long dsRNA against Drosophila genes, 0.25 µg dsRNA per well of a 384-well plate
- Time to read-out: 5 days
- Conditions: cells persistently infected with Wolbachia before knock-down; no added drug
- Detection: 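Imaged fluorescence in situ signal for Wolbachia 23S rRNA per DAPI-counted host cell, given as a robust z-score within each plate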
- Scale: Wolbachia per cell robust z: higher = more Wolbachia per host cell than the plate typical
- Hit rule: 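Active if absolute robust z reaches 1.5 in two or more of three replicates, leaving out multi- or no-target dsRNAs, genes unexpressed in JW18 and A1 wells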
In all, the deposit lists about 24,000 reagents; below is a random part of those with a known target gene and a result. In the full data, about 1,210 (5%) are marked active. 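Inactive calls also include excluded dsRNAs with several or no targets, genes unexpressed in JW18, and well A1, regardless of score.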 The numbers tell different reagents against one gene apart. Names joined by + are all predicted targets of the reagent.

target | dsRNA no. | Wolbachia per cell robust z, rep 1 | Wolbachia per cell robust z, rep 2 | Wolbachia per cell robust z, rep 3 | outcome
CG14095 | 1 | -1.75 | -0.792 | -0.644 | inactive
lin-52 | 1 | -4.51 | 0.155 | 0.657 | inactive
CG5068 | 1 | 0.453 | -0.996 | 0.608 | inactive
CG9143 | 1 | 0.464 | -0.582 | 0.225 | inactive
CG42307 + mus312 | 1 | -0.0787 | -0.0133 | 1.05 | inactive
mrn | 1 | 0.157 | -1.34 | 0.22 | inactive
CG18190 | 1 | 0.563 | 0.0832 | 0.316 | inactive
CG18190 | 2 | 0.341 | 0.136 | -0.474 | inactive
l(1)G0196 | 1 | -6.38 | -1.75 | -7.22 | active
l(1)G0196 | 2 | -2.25 | 0.484 | -0.138 | inactive
mRpS18B | 1 | 2.04 | 0.856 | 0.21 | inactive
CG8501 | 1 | -1.06 | -0.874 | -1.17 | inactive
CG14759 | 1 | -2.81 | -3.85 | -0.133 | inactive
Pebp1 | 1 | -1.56 | -5.53 | -1.23 | inactive
Ubr1 | 1 | -2.85 | -6.24 | -1.69 | active
ppk13 | 1 | 0.141 | 0.613 | 0.386 | inactive
slbo | 1 | -1.17 | 0.349 | 0.0728 | inactive
slbo | 2 | 1.36 | 1.17 | 0.958 | inactive
CG1239 | 1 | -0.26 | -6.45 | -2.15 | active
CG1239 | 2 | 0.868 | -0.0695 | 0.554 | inactive
asrij | 1 | 1.69 | -0.139 | 1.05 | inactive
CG13872 | 1 | 0.433 | -1.34 | -1.2 | inactive
CG8617 | 1 | 1.16 | 0.699 | -2.84 | inactive
wor | 1 | 0.564 | 1.38 | -1.12 | inactive
wor | 2 | 0.374 | -1.17 | -0.154 | inactive
dUTPase | 1 | 0.285 | -1.63 | -0.994 | inactive
dUTPase | 2 | 1.08 | 0.668 | 1.25 | inactive
Adgf-D | 1 | -1.71 | 1.89 | -0.417 | inactive
